Assay results as given in PMC7038234, “Screening of Natural Extracts for Inhibitors against Japanese Encephalitis Virus Infection” (Antimicrobial Agents and Chemotherapy, 2020).
Structures can show the parent of a compound that is named as a salt. Where two headings read alike, the source gives them in different places.

Tested on: JEV strain AT31
[1] = Primary screening of 1034 compounds in the natural extracts library
[2] = primary screening of 1034 compounds in the natural extracts library, red numbers = obvious cytotoxicity, blue numbers = insoluble in DMSO (colours not visible)

Row | Molecule | Inhibition (%) [1] [%] | Inhibition (%) [2] [%]
1 | COc1ccc2cc3[n+](cc2c1OC)CCc1cc2c(cc1-3)OCO2 [Berberine Sulfate] | 32.8454 | 
2 | Maltopentaose | -13.9233 | 
3 | C[C@@H]1O[C@@H](O[C@H]2[C@H](O)[C@@H](O)[C@H](OC[C@H]3O[C@@H](OC(=O)[C@]45CCC(C)(C)C[C@H]4C4=CC[C@@H]6[C@@]7(C)CC[C@H](O[C@@H]8OC[C@H](O)[C@H](O)[C@H]8O)[C@@](C)(CO)[C@@H]7CC[C@@]6(C)[C@]4(C)CC5)[C@H](O)[C@@H](O)[C@@H]3O)O[C@@H]2CO)[C@H](O)[C@H](O)[C@H]1O [Hederacoside D] | 21.7662 | 
4 | COC1=C[C@@H]2[C@@H]3Cc4ccc(OC)c(O)c4[C@]2(CCN3C)CC1=O.Cl [Sinomenine hydrochloride] | 90.727 | 
5 | O=C1CCc2ccccc2O1 [Hydrocoumarin] | -4.613 | 
6 | C=C1CC[C@@H]2[C@](C)(COC(=O)CCC(=O)[O-])[C@H](OC(=O)CCC(=O)O)CC[C@@]2(C)[C@@H]1/C=C/C1=CCOC1=O.[K+] [Kalii Dehydrographolidi Succinas] | 10.4647 | 
7 | OC[C@@H](O)[C@@H](O)[C@H](O)[C@H](O)CO [D-Mannitol] | 54.8211 | 
8 | C[n+]1cc2c3c(ccc2c2ccc4cc5c(cc4c21)OCO5)OCO3.O=C([O-])CC(O)(CC(=O)O)C(=O)O [Sanguinarine citrate] | -65.5118 | 
9 | CC(=O)O[C@@]12CO[C@@H]1C[C@H](O)[C@@]1(C)C(=O)[C@H](O)C3=C(C)[C@@H](OC(=O)[C@H](O)[C@@H](NC(=O)c4ccccc4)c4ccccc4)C[C@@](O)([C@@H](OC(=O)c4ccccc4)[C@H]21)C3(C)C [Deacetyltaxol] | 39.9853 | 
10 | Cc1cc(O)cc(OC2O[C@H](CO)[C@@H](O)[C@H](O)[C@H]2O)c1 (some centres unmarked) [Orcinol glucosid] | 19.2563 | 
11 | C=C(CCC=C(C)C)[C@H]1CC[C@]2(C)[C@@H]1[C@H](O)C[C@@H]1[C@@]3(C)CC[C@H](O)C(C)(C)[C@@H]3[C@@H](O[C@@H]3O[C@H](CO)[C@@H](O)[C@H](O)[C@H]3O)C[C@]12C [Ginsenoside Rk3] | 88.7674 | 
12 | (-)-Epicatechin gallate |  | 42.9048
13 | C[N+]1(C)CCC[C@H]1C(=O)[O-].Cl [Stachydrine hydrochloride] | 7.898 | 
14 | COc1cc2c(cc1O)C[C@H]1c3cc(O)c(OC)cc3CC[N@@+]1(C)C2 [Phellodendrine] | -4.557 | 
15 | O=c1cc(-c2ccc(O[C@@H]3O[C@H](CO)[C@@H](O)[C@H](O)[C@H]3O)cc2)oc2cc(O)c([C@@H]3O[C@H](CO)[C@@H](O)[C@H](O)[C@H]3O[C@@H]3OC[C@H](O)[C@H](O)[C@H]3O)c(O)c12 [Vaccarin] | 1.877 | 
16 | C=C1C(=O)O[C@@H]2C[C@@]3(C)CCC[C@H](C)C3=C[C@H]12 [Alantolactone] | -10.943 | 
17 | CC(=O)O[C@@]12CO[C@@H]1C[C@H](O)[C@@]1(C)C(=O)[C@H](O)C3=C(C)[C@@H](O)C[C@@](O)([C@@H](OC(=O)c4ccccc4)[C@H]21)C3(C)C [10-Deacetyl Baccatin] | 77.214 | 
18 | COc1cc(OC)c(OC)cc1C=O [Asarylaldehyde] | 22.225 | 
19 | O=C(/C=C/c1ccc(O)cc1)NCCc1ccc(O)cc1 [Paprazine] | -5.899 | 
20 | C=C1[C@H](OC(=O)/C=C(\C)CC)C[C@@H](C(C)C)[C@@H]2[C@@H]([C@@H](C)OC(C)=O)C(=O)C[C@@H]12 [Tussilagone] | 18.2489 | 
21 | C=C[C@H](O)C#CC#CC/C=C\CCCCCCC [Falcarinol，Panaxynol] | 91.6948 | 
22 | O=Cc1ccc(O)c(O)c1 [protocatechuicaldehyde] |  | 7.9473
23 | COc1cc2c3c(c1OC)-c1ccccc1C[C@H]3NCC2 [N-Nornuciferine] | 18.0593 | 
